{"source": "paper PMC11143371", "about": "“Universal paramyxovirus vaccine design by stabilizing regions involved in structural transformation of the fusion protein” (2024)", "test_system": "NiV F ectodomain without GCN4, S470V + A477V, Nipah virus, Q9IH63 27-497", "test": "SEC"}
{"substance": "NiV F ectodomain without GCN4, S470V + A477V S470V | A477V", "values": [{"measurement": "stoichiometry N", "value": 3}]}
